Results of unrelated studies side by side (data: NIAID ChemDB).

Common to all: growth or infection tests; organism: Plasmodium falciparum

Blank or dashed fields: not listed here.

CCO/C(=N/NC(=O)NOCc1ccccc1)C(C)(O)c1ccc2ccccc2c1 ; strain: 3D7 ; method: hypoxanthine uptake / radiometric ; dose: 5 µM ; endpoint: inhibition ; result: 14%
N=C(N)c1ccc(NCCNc2ccc(C(=N)N)cc2N)c(N)c1 ; strain: W2 ; method: hypoxanthine uptake ; endpoint: EC50 ; result: >1 µM
CCCCNc1nc(Nc2nc(-c3ccc(Cl)cc3)cs2)nc(N(CC)CC)n1 ; strain: 3D7 ; dose: 50 µg/mL ; endpoint: inhibition ; result: 6.5%
CCCCCCCCCCCC(=O)NC(CCCC[NH3+])C(=O)NC(CCCC[NH3+])C(=O)NCCCCCCCCCCCC(=O)NC(CCCC[NH3+])C(=O)NC(C=O)CCCC[NH3+] ; strain: NF54 ; method: hypoxanthine uptake ; endpoint: EC50 ; result: >10 µM
N=C(N)c1ccc(NCCCNc2ccc(C(=N)N)cc2[N+](=O)[O-])c([N+](=O)[O-])c1 ; strain: W2 ; method: hypoxanthine uptake ; endpoint: EC50 ; result: 0.162 µM
CCCCCCCC(=O)NC(CCCC[NH3+])C(=O)NCCCCCCCC(=O)NC(CCCC[NH3+])C(=O)NCCCCCCCC(=O)NC(CCCC[NH3+])C(N)=O ; strain: FCR3 ; method: hypoxanthine uptake ; endpoint: EC50 ; result: 2.7 µM
N=C(N)c1ccc(NCCCCCNc2ccc(C(=N)N)cc2[N+](=O)[O-])c([N+](=O)[O-])c1 ; strain: W2 ; method: hypoxanthine uptake ; endpoint: EC50 ; result: 0.248 µM
CC[C@H]1OC(=O)[C@H](C)[C@@H](OC2C[C@@](C)(OC)[C@@H](O)[C@H](C)O2)[C@H](C)[C@@H](OC2O[C@H](C)C[C@H](N(C)C)[C@H]2O)[C@](C)(OC2C[C@@H](O)[C@H](O)[C@H](C)O2)C[C@@H](C)C(=O)[C@H](C)[C@@H](O)[C@]1(C)O ; strain: 3D7 ; method: fluorescence ; endpoint: EC50 ; conditions: 48 h ; cells: RBC ; result: 60.9 µM
NC(=O)C(CCCC[NH3+])NC(=O)CCCCCCCNC(=O)C(CCCC[NH3+])NC(=O)CCCCCCCNC(=O)C(N)CCCC[NH3+] ; strain: FCR3 ; method: hypoxanthine uptake ; endpoint: EC50 ; result: 180 µM
CC(C)C(CO)[N-]C(=O)c1ccccn1.[Cl][Au] ; strain: 3D7 ; method: LDH ; dose: 20 µM ; endpoint: inhibition ; result: 43%
CC(C)(C)OC(=O)N/N=C(/OCCc1ccccc1)C(C)(O)c1ccc(Cl)c(Cl)c1 ; strain: 3D7 ; method: hypoxanthine uptake / radiometric ; dose: 5 µM ; endpoint: inhibition ; result: 0%
N=C(N)c1ccc(NCCCCCCNc2ccc(C(=N)N)cc2)cc1 ; strain: D6 ; method: hypoxanthine uptake ; endpoint: EC50 ; result: 0.036 µM
CCO/C(Cc1ccc(Cl)c(Cl)c1)=N/NC(=O)OC(C)(C)C ; strain: 3D7 ; method: hypoxanthine uptake / radiometric ; dose: 5 µM ; endpoint: inhibition ; result: 5%
CCN(CC)CCCC(C)Nc1ccnc2cc(Cl)ccc12 ; strain: KAE678R-2 ; method: SYBR Green / fluorescence ; endpoint: EC50 ; changes: KAE678-resistant pfatp4 A184S/P990R ; result: 0.0119 µM
N=C(N)c1ccc(OCCCCOc2ccc(C(=N)N)cc2[N+](=O)[O-])c([N+](=O)[O-])c1 ; strain: D6 ; method: hypoxanthine uptake ; endpoint: EC50 ; result: 0.139 µM
CCCCCC(CCCCCC=O)NC(CCCC[NH3+])C(=O)NC(CCCC[NH3+])C(=O)NCCCCCCCCCCCC(=O)NC(CCCC[NH3+])C(N)=O ; strain: NF54 ; method: hypoxanthine uptake ; endpoint: EC50 ; result: 2.7 µM
Nc1nc(Nc2ccccc2)nc(Nc2nc(-c3ccc(Cl)cc3)cs2)n1 ; strain: 3D7 ; dose: 50 µg/mL ; endpoint: inhibition ; result: 3%
CC[C@H]1OC(=O)[C@H](C)[C@@H](OC2C[C@@](C)(OC)[C@@H](O)[C@H](C)O2)[C@H](C)[C@@H](OC2O[C@H](C)C[C@H](N(C)C)[C@H]2O)[C@](C)(OC2C[C@@H](N(C)C)[C@@H](O)[C@H](C)O2)C[C@@H](C)C(=O)[C@H](C)[C@@H](O)[C@]1(C)O ; strain: 3D7AziR ; method: fluorescence ; endpoint: EC50 ; conditions: 120 h ; cells: RBC ; result: 1.8 µM
CCN(CC)c1nc(NCCc2ccco2)nc(Nc2nc(-c3ccc(Cl)cc3)cs2)n1 ; strain: 3D7 ; dose: 50 µg/mL ; endpoint: inhibition ; result: 9.5%
CCO/C(=N/NC(=O)OC(C)(C)C)C(O)c1cccc2ccccc12 ; strain: 3D7 ; method: hypoxanthine uptake / radiometric ; dose: 5 µM ; endpoint: inhibition ; result: 7%
CCCCCCCC(=O)NC(CCCC[NH3+])C(=O)NCCCCCCCC(=O)NC(CCCC[NH3+])C(=O)NCCCCCCCC(=O)NC(CCCC[NH3+])C(=O)NCCCCCCCC(=O)NC(CCCC[NH3+])C(=O)NCCCCCCCC(=O)NC(CCCC[NH3+])C(N)=O ; strain: FCR3 ; method: hypoxanthine uptake ; endpoint: EC50 ; result: 49 µM
CCC[C@H]1O[C@@H]2CC(=O)O[C@@H]2C2=C1C(=O)c1c(O)cccc1C2=O ; strain: HB3 ; method: SYBR Green ; dose: 1.5 µM ; endpoint: inhibition ; result: 90%
CCN(CC)CCCC(C)Nc1ccnc2cc(Cl)ccc12 ; strain: Dd2 ; method: LDH ; endpoint: fold resistance ; changes: CQ-resistant ; result: 23.73
CCCCCCCC(=O)NC(CCCC[NH3+])C(=O)NCCCCCCCC(=O)NC(CCCC[NH3+])C(=O)NCCCCCCCC(=O)NC(CCCC[NH3+])C(=O)NCCCCCCCC(=O)NC(CCCC[NH3+])C(N)=O ; strain: FCR3 ; method: hypoxanthine uptake ; endpoint: EC50 ; result: 15 µM
C=C[C@H]1CN2CC[C@H]1C[C@H]2[C@H](O)c1ccnc2ccc(OC)cc12 ; strain: W2 ; dose: 0.016 µg/mL ; endpoint: inhibition ; conditions: 72 h ; result: 75%
C[C@H]1Cc2c([nH]c3cc(Cl)c(F)cc23)[C@@]2(N1)C(=O)Nc1ccc(Cl)cc12 ; strain: KAE678R-2 ; method: SYBR Green / fluorescence ; endpoint: EC50 ; changes: KAE678-resistant (A184S/P990R) ; result: 0.00366 µM
CCCCNc1nc(N)nc(Nc2nc(-c3ccc(Cl)c(Cl)c3)cs2)n1 ; strain: 3D7 ; dose: 50 µg/mL ; endpoint: inhibition ; result: 5.5%
CO/C(=N/NC(=O)OC(C)(C)C)C(C)(O)c1ccc(Cl)c(Cl)c1 ; strain: 3D7 ; method: hypoxanthine uptake / radiometric ; dose: 5 µM ; endpoint: inhibition ; result: 66%
C[C@H]1CCc2c([nH]c3ccccc23)[C@@]2(N1)C(=O)Nc1ccc(Cl)cc12 ; strain: KAE678R-3 ; method: SYBR Green / fluorescence ; endpoint: EC50 ; changes: KAE678-resistant (I203M/I263V) ; result: 0.291 µM
CCCCCCCCCCCC(=O)NC(CCCC[NH3+])C(=O)NCCCCCCCC(=O)NC(CCCC[NH3+])C(=O)NCCCCCCCC(=O)NC(CCCC[NH3+])C(N)=O ; strain: FCR3 ; method: hypoxanthine uptake ; endpoint: EC50 ; result: 0.2 µM
CCOC(=O)N/N=C(/OCC)C(O)(CC)c1ccc(Cl)c(Cl)c1 ; strain: 3D7 ; method: hypoxanthine uptake / radiometric ; dose: 5 µM ; endpoint: inhibition ; result: 66%
NCCCCCCCC(=O)NC(CCCC[NH3+])C(=O)NCCCCCCCC(=O)NC(CCCC[NH3+])C(=O)NCCCCCCCC(=O)NC(CCCC[NH3+])C(=O)NCCCCCCCC(=O)NC(CCCC[NH3+])C(=O)NCCCCCCCC(=O)NC(CCCC[NH3+])C(N)=O ; strain: FCR3 ; method: hypoxanthine uptake ; endpoint: EC50 ; result: 73 µM
CCO/C(=N/NC(=O)NCc1ccc(Cl)cc1)C(C)(O)c1ccc(Cl)c(Cl)c1 ; strain: 3D7 ; method: hypoxanthine uptake / radiometric ; dose: 5 µM ; endpoint: inhibition ; result: 0%

The first 3 rows once more:

compound,strain,method,dose,endpoint,conditions,changes,cells,result
CCO/C(=N/NC(=O)NOCc1ccccc1)C(C)(O)c1ccc2ccccc2c1,3D7,hypoxanthine uptake / radiometric,5 µM,inhibition,-,-,-,14%
N=C(N)c1ccc(NCCNc2ccc(C(=N)N)cc2N)c(N)c1,W2,hypoxanthine uptake,-,EC50,-,-,-,>1 µM
CCCCNc1nc(Nc2nc(-c3ccc(Cl)cc3)cs2)nc(N(CC)CC)n1,3D7,-,50 µg/mL,inhibition,-,-,-,6.5%

Fold resistance: result on the changed form divided by that on wild type. ECn: concentration that inhibits the pathogen or its effect by n%. Inhibition is in % at the dose shown (toxicity tests: loss of growth or viability). Lines come from different laboratories, so protocols vary.